Anti-infective test results gathered from many reports (values: NIAID ChemDB through PubChem).

All rows: enzyme or target tests; organism: HIV-1; protein: Protease

Blank or dashed fields: not listed here.

SMILES	strain	changes	read by	read-out	result
COC(=O)NCCCCC(C)(C)CN(C[C@@H](O)[C@H](Cc1ccccc1)NC(=O)[C@@H](NC(=O)OC)C(C)(C)C)S(=O)(=O)c1ccc2c(c1)OCO2			fluorescence	Ki	<0.001 µM
CCC(Cc1cccc(NS(=O)(=O)c2ccc(C(=O)O)cc2)c1)c1cc(O)c(C(c2ccccc2)C2CC2)c(=O)o1			fluorescence	IC50	1.64 µM
CC(C)(CCNC(=S)NCc1ccco1)CN(C[C@@H](O)[C@H](Cc1ccccc1)NC(=O)O[C@H]1CO[C@H]2OCC[C@H]21)S(=O)(=O)c1ccc2c(c1)OCO2			fluorescence	Ki	<0.001 µM
CC(C)[C@@H](/C=C/C(=O)O)NC(=O)c1cc2ccccc2c(-c2c(O)c(C(=O)N[C@H](/C=C/C(=O)O)C(C)C)cc3ccccc23)c1O				IC50	46 µM
CC(C)(CCNS(C)(=O)=O)CN(C[C@@H](O)[C@H](Cc1ccccc1)NC(=O)O[C@H]1CO[C@H]2OCC[C@H]21)S(=O)(=O)c1ccc(N)cc1			fluorescence	Ki	<0.001 µM
O=C(N[C@@H](Cc1ccccc1)C(=O)NC(CCO)NC(=O)[C@H](Cc1ccccc1)NC(=O)OCC1c2ccccc2-c2ccccc21)OCC1c2ccccc2-c2ccccc21			substrate cleavage	IC50	8.5 µM
CC(C)[C@H](NC(=O)[C@H](Cc1cccc2ccccc12)CS(=O)(=O)C(C)(C)C)C(=O)N[C@@H](Cc1ccc2c(c1)OCO2)[C@@H](O)[C@H](O)[C@H](Cc1ccc2c(c1)OCO2)NC(=O)[C@@H](NC(=O)[C@H](Cc1cccc2ccccc12)CS(=O)(=O)C(C)(C)C)C(C)C	D34		HPLC	IC50	0.0004 µM
CCCCC1(CCc2cccc(NS(=O)(=O)c3ccccc3)c2)COC(=O)C(C(CC)c2cccc(NS(=O)(=O)c3ccccc3)c2)=C1O				IC50	0.113 µM
COC(=O)NCC(=O)NCCCCC(C)(C)CN(C[C@@H](O)[C@H](Cc1ccccc1)NC(=O)O[C@H]1CO[C@H]2OCC[C@H]21)S(=O)(=O)c1ccc2c(c1)OCO2			fluorescence	Ki	<0.001 µM
Cc1cccc(C)c1OCC(=O)N[C@@H](Cc1ccccc1)[C@@H](O)C[C@H](Cc1ccccc1)NC(=O)[C@H](C(C)C)N1CCCC1=O				IC50	<0.0005 µM
CCC(Cc1cccc(NS(=O)(=O)c2ccc(C#N)cc2)c1)c1cc(O)c(C(c2ccccc2)C2CC2)c(=O)o1			fluorescence	IC50	0.89 µM
CC(C)[C@H](NC(=O)[C@H](C/C=C/c1ccccc1)C[C@H](O)[C@H](Cc1ccccc1)NC(=O)OC(C)(C)C)c1ncn[nH]1			HPLC	Ki	0.0067 µM
CC(C)(C)OC(=O)N[C@@H](Cc1ccccc1)C(=O)NC(CCO)NC(=O)[C@H](Cc1ccccc1)NC(=O)OC(C)(C)C			substrate cleavage	IC50	>10 µM
CC(C)(CCCN)CN(C[C@@H](O)[C@H](Cc1ccccc1)NC(=O)O[C@H]1CO[C@H]2OCC[C@H]21)S(=O)(=O)c1cccc2c1OCCO2			fluorescence	Ki	<0.001 µM
CC(C)[C@H](NC(=O)[C@H](Cc1ccccc1)C[C@H](O)[C@H](Cc1ccccc1)NC(=O)OC(C)(C)C)C(=O)N/C(N)=N/C(=O)OCc1ccccc1			HPLC	Ki	0.00028 µM
Cc1cccc(C)c1OCC(=O)N[C@@H](Cc1ccccc1)[C@@H](O)C[C@H](Cc1ccccc1)NC(=O)[C@H](C(C)C)N1CCCN(C)C1=O				IC50	<0.0005 µM
CNC(=O)NCCCC(C)(C)CN(C[C@@H](O)[C@H](Cc1ccccc1)NC(=O)O[C@H]1CO[C@H]2OCC[C@H]21)S(=O)(=O)c1ccc2c(c1)OCO2			fluorescence	Ki	<0.001 µM
CSCC[C@H](NC(=O)[C@H](CCO)NCc1ccccc1)C(=O)NC(C)(C)C			HPLC	IC50	2.643 µM
CC(C)(CCCCNC(=O)C(C)(C)C)CN(C[C@@H](O)[C@H](Cc1ccccc1)NC(=O)O[C@H]1CO[C@H]2OCC[C@H]21)S(=O)(=O)c1ccc2c(c1)OCO2			fluorescence	Ki	<0.001 µM
N[C@@H](Cc1ccccc1)C(=O)NC(CO)NC(=O)[C@@H](N)Cc1ccccc1			substrate cleavage	IC50	>10 µM
CCCNC(=S)NCCC(C)(C)CN(C[C@@H](O)[C@H](Cc1ccccc1)NC(=O)O[C@H]1CO[C@H]2OCC[C@H]21)S(=O)(=O)c1ccc2c(c1)OCO2			fluorescence	Ki	<0.001 µM
CCCC1(CCc2ccccc2)CC(=O)C(C(SCC)c2cccc(NS(=O)(=O)c3ccc(C(F)(F)F)cn3)c2)C(=O)C1			substrate cleavage	Ki	0.001 µM
CC(C)C[C@@H](NC(=O)[C@H](O)COS(=O)(=O)O)C(=O)N[C@@H]1C(=O)N[C@@H](CCCN=C(N)N)C(=O)N[C@H]2CC[C@H](O)N(C2=O)[C@@H](CC(C)C)C(=O)N[C@H](Cc2ccc(O)cc2)C(=O)N[C@H](C(C)C)C(=O)O[C@@H]1C			substrate cleavage	Ki	0.001 µM
CC(C)(CCCCNC(=O)c1cc(F)cc(F)c1)CN(C[C@@H](O)[C@H](Cc1ccccc1)NC(=O)O[C@H]1CO[C@H]2OCC[C@H]21)S(=O)(=O)c1ccc2c(c1)OCO2			fluorescence	Ki	<0.001 µM
O=C(N[C@@H](Cc1ccccc1)C(=O)NC(CO)NC(=O)[C@H](Cc1ccccc1)NC(=O)OCC1c2ccccc2-c2ccccc21)OCC1c2ccccc2-c2ccccc21			substrate cleavage	IC50	0.44 µM
O=C(N[C@H](Cc1ccc(O)c(-c2cc(C[C@@H](NC(=O)OCc3ccccc3)C(=O)O)ccc2O)c1)C(=O)O)OCc1ccccc1				IC50	24 µM
CCC(C)[C@@H]1NC(=O)C(NCC(=O)[C@@H]2Cc3ccc(cc3)OCCCCC(=O)N[C@@H](C(C)C)C(=O)N2)Cc2ccc(cc2)OCCCNC1=O			substrate cleavage	Ki	0.8 µM
CC(C)[C@H](NC(=O)[C@H](Cc1cccc2ccccc12)CS(=O)(=O)C(C)(C)C)C(=O)N[C@@H](Cc1ccccc1)[C@@H](O)[C@@H](N=[N+]=[N-])[C@H](Cc1ccccc1)NC(=O)[C@@H](NC(=O)[C@H](Cc1cccc2ccccc12)CS(=O)(=O)C(C)(C)C)C(C)C	D34		HPLC	IC50	0.06 µM
CCC(Cc1cccc(NS(=O)(=O)c2ccc(NC(C)=O)cc2)c1)c1cc(O)c(C(c2ccccc2)C2CC2)c(=O)o1			fluorescence	IC50	3.24 µM
O=C(/C=C/c1ccc(O)c2c1[C@H](C(=O)O)[C@@H](c1ccc(O)c(O)c1)O2)O[C@H](Cc1ccc(O)c(O)c1)C(=O)O			HPLC	IC50	>100 µM
CC(C)[C@H](NC(=O)[C@H](Cc1cccc2ccccc12)CS(=O)(=O)C(C)(C)C)C(=O)N[C@@H](Cc1ccccc1)[C@@H](O)[C@H](O)[C@H](Cc1ccccc1)NC(=O)[C@@H](NC(=O)[C@H](Cc1cccc2ccccc12)CS(=O)(=O)C(C)(C)C)C(C)C	D34		HPLC	IC50	0.0003 µM
CC(C)[C@H](NC(=O)[C@H](C)C[C@H](O)[C@H](Cc1ccccc1)NC(=O)[C@H](C)NC(=O)OCc1ccccc1)C(=O)N[C@H](CO)C(C)C			HPLC	Ki	0.002 µM
CC(C)(C)S(=O)(=O)C[C@@H](Cc1cccc2ccccc12)C(=O)NCCC(=O)N[C@@H](Cc1ccccc1)[C@@H](O)[C@H](O)[C@H](Cc1ccccc1)NC(=O)CCNC(=O)[C@H](Cc1cccc2ccccc12)CS(=O)(=O)C(C)(C)C	D34		HPLC	IC50	0.05 µM
CNc1cccc(S(=O)(=O)N(C[C@@H](O)[C@H](Cc2ccccc2)NC(=O)O[C@H]2CO[C@H]3OCC[C@H]32)CC(C)(C)CCCCNC(=O)NC(C)C)c1			fluorescence	Ki	<0.001 µM
CCCCC1(CCc2cccc(NS(=O)(=O)c3ccc(C#N)cc3)c2)COC(=O)C(C(CC)c2cccc(NS(=O)(=O)c3ccc(C#N)cc3)c2)=C1O				IC50	0.122 µM
CC(C)[C@H](NC(=O)[C@H](Cc1ccccc1)NC(=O)[C@H](O)[C@@H](O)[C@H](O)[C@H](O)CO)C(=O)N[C@@H](Cc1ccccc1)[C@@H](O)[C@H](O)[C@H](Cc1ccccc1)NC(=O)[C@@H](NC(=O)[C@H](Cc1ccccc1)NC(=O)[C@H](O)[C@@H](O)[C@H](O)[C@H](O)CO)C(C)C	D34		HPLC	IC50	0.0009 µM
CSCC[C@H](NC(=O)[C@H](CO)N(Cc1ccccc1)C(=O)[C@H](Cc1ccccc1)NC(=O)OCC1c2ccccc2-c2ccccc21)C(=O)NC(C)(C)C			HPLC	IC50	1.17 µM
CC(C)C(=O)c1cnc([C@H](Cc2ccccc2)C[C@H](O)[C@H](Cc2ccccc2)NC(=O)[C@@H](NC(=O)OCc2ccccc2)C(C)C)[nH]1			HPLC	Ki	0.0022 µM
CC(=O)NC(=O)[C@H](Cc1c[nH]c2ccccc12)NC(=O)[C@@H](NC(=O)[C@@H]1CCCN1C[C@@H](O)[C@H](Cc1ccccc1)NC(=O)COc1c(C)cccc1C)C(C)C			fluorescence	IC50	0.0753 µM
CC(C)(CCCCN=C(N)NC#N)CN(C[C@@H](O)[C@H](Cc1ccccc1)NC(=O)O[C@H]1CO[C@H]2OCC[C@H]21)S(=O)(=O)c1ccc2c(c1)OCO2			fluorescence	Ki	<0.001 µM
CC[C@H](C)[C@H](NC(=O)[C@@H]1CCCN1C[C@@H](O)[C@H](Cc1ccccc1)NC(=O)[C@H](CC(N)=O)NC(=O)[C@H](CC(C)C)NC(=O)[C@H](CO)NC(C)=O)C(=O)N[C@H](C(=O)NC(C)=O)C(C)C			fluorescence	IC50	0.00061 µM
CC(C)(CCCNC(=O)C1CCC1)CN(C[C@@H](O)[C@H](Cc1ccccc1)NC(=O)O[C@H]1CO[C@H]2OCC[C@H]21)S(=O)(=O)c1ccc2c(c1)OCO2			fluorescence	Ki	<0.001 µM
Cc1cccc(C)c1OCC(=O)N[C@@H](Cc1ccccc1)[C@@H](O)C[C@H](Cc1ccccc1)NC(=O)[C@H](C(C)C)N1C(=O)CCC1=O				IC50	<0.0005 µM
COc1ccc(S(=O)(=O)N(C[C@@H](O)[C@H](Cc2ccccc2)NC(=O)O[C@H]2CO[C@@H]3OCC[C@@H]32)CC(C)(C)CCC#N)cc1			fluorescence	Ki	0.001–0.01 µM
CCC(Cc1cccc(NS(=O)(=O)c2ccc(C)cc2)c1)c1cc(O)c(C(c2ccccc2)C2CC2)c(=O)o1			fluorescence	IC50	5.12 µM
CC(=O)NCCCCCC(C)(C)CN(C[C@@H](O)[C@H](Cc1ccccc1)NC(=O)O[C@H]1CO[C@H]2OCC[C@H]21)S(=O)(=O)c1ccc2c(c1)OCO2			fluorescence	Ki	<0.001 µM
CSCC[C@H](NC(=O)[C@H](CO)N(Cc1ccccc1)C(=O)[C@H](CC(C)C)NC(=O)OCc1ccccc1)C(=O)NC(C)(C)C			HPLC	IC50	0.98 µM
CCS(=O)(=O)NCCCC(C)(C)CN(C[C@@H](O)[C@H](Cc1ccccc1)NC(=O)O[C@H]1CO[C@H]2OCC[C@H]21)S(=O)(=O)c1ccc2c(c1)OCO2			fluorescence	Ki	<0.001 µM
CSCC[C@H](NC(=O)[C@H](CO)N(Cc1ccccc1)C(=O)[C@H](CC(C)C)NC(=O)OCC1c2ccccc2-c2ccccc21)C(=O)NC(C)(C)C			HPLC	IC50	1.01 µM
COCC(=O)NCC(=O)NCCCCC(C)(C)CN(C[C@@H](O)[C@H](Cc1ccccc1)NC(=O)O[C@H]1CO[C@H]2OCC[C@H]21)S(=O)(=O)c1ccc2c(c1)OCO2			fluorescence	Ki	<0.001 µM
CCCCC1(CCc2cccc(NS(=O)(=O)c3ccc(F)cc3)c2)COC(=O)C(C(CC)c2cccc(NS(=O)(=O)c3ccc(F)cc3)c2)=C1O				IC50	0.229 µM
CCSC(=O)NCCCCC(C)(C)CN(C[C@@H](O)[C@H](Cc1ccccc1)NC(=O)O[C@H]1CO[C@H]2OCC[C@H]21)S(=O)(=O)c1cccc(N)c1			fluorescence	Ki	<0.001 µM
CCCC[C@H](NC(=O)[C@H](C)NC(=O)[C@H](CCC(=O)O)NC[C@H](Cc1ccccc1)NC(=O)[C@H](CC(C)C)NC(=O)[C@@H](NC(=O)[C@@H](N)CCCN=C(N)N)C(C)C)C(N)=O		PR-D30N	HPLC	IC50	>0.075 µM
CC(C)(CCCCNC(=O)OC1COCOC1)CN(C[C@@H](O)[C@H](Cc1ccccc1)NC(=O)O[C@H]1CO[C@H]2OCC[C@H]21)S(=O)(=O)c1ccc2c(c1)OCO2			fluorescence	Ki	<0.001 µM
CCCCC1(CCc2cccc(NS(=O)(=O)c3ccc(C#N)cn3)c2)COC(=O)C(C(CC)c2cccc(NS(=O)(=O)c3ccc(C#N)cn3)c2)=C1O				IC50	0.052 µM

ICn is the concentration giving n% inhibition. Neighbouring rows are from separate reports. Two numbers with a dash give a range or band.